Values quoted from earlier work as cited in publication PMC9469084, “Unravelling the pharmacokinetics of aflatoxin B1: In vitro determination of Michaelis–Menten constants, intrinsic clearance and the metabolic contribution of CYP1A2 and CYP3A4 in pooled human liver microsomes” (Frontiers in Microbiology, 2022).

Test system: human liver microsomes
Conditions: cited from earlier work

Cc1ncc2n1-c1ccc(Cl)cc1C(c1ccccc1F)=NC2 [MDZ, midazolam, reference compound]
Vmax range (earlier reported values for MDZ, ref Von Moltke et al., 1996, Hickman et al., 1998, Yuan et al., 2002, Bian et al., 2015, Kazmi, Nguyen et al., 2016, Gao et al., 2017): 190.0–4,380 pmol/(mg.min) | Km (read-out: Km range, earlier reported values for MDZ, ref Von Moltke et al., 1996, Hickman et al., 1998, Yuan et al., 2002, Bian et al., 2015, Kazmi, Nguyen et al., 2016, Gao et al., 2017): 1.9 to 9 µM
